A mixed list of measured activities; the numbers were collected in NIAID ChemDB.

Common to all: tests in culture; species: Mycobacterium tuberculosis

ECn: concentration that inhibits the pathogen or its effect by n%. MIC50, MIC90 and the like: level of inhibition, or share of isolates inhibited. Rows are shuffled and stem from different studies. MIC bound: limit read from a one-dose screen. Blank or dashed fields: not listed here. Two numbers with a dash give a range or band. Inhibition is in % at the dose shown (toxicity tests: loss of growth or viability).

| SMILES | read by | cell line | measure | strain | tested at | changes | value |
|---|---|---|---|---|---|---|---|
| CN(C)CCCN1c2ccccc2Sc2ccc(Cl)cc21 | - | - | MBC | Isolate E (drug-resistant) | - | - | 30 µg/mL |
| CCCCCCCCCCCCN1C(=O)C(CC(=O)O)SC12CCCC2 | resazurin | - | inhibition | H37Ra | 25 µg/mL | - | 97% |
| C=CCN1C(=O)/C(=C/c2cccc(OC)c2OC)S/C1=N\c1nc2ccccc2s1 | - | - | MIC | H37Rv | - | - | ≥25 µg/mL |
| Cc1cc2c(c(S(=O)(=O)c3ccccc3[N+](=O)[O-])c1)NCCC2 | BACTEC | - | inhibition | H37Rv | 12.5 µg/mL | - | 13% |
| CCNC(=S)N=Nc1c(O)n(CN2CCOCC2)c2ccc(OC(F)(F)F)cc12 | broth dilution / resazurin | - | EC50 | H37Rv | - | - | 2.095 µg/mL |
| Cn1cccc1/C=N/N1CC(=O)N(c2ccccc2)CC1=O | BACTEC | - | MIC bound | H37Rv | - | - | >6.25 µg/mL |
| Cc1[nH]n(-c2ccccc2)c(=O)c1Sc1ccc(Cl)cc1Cl | fluorescence | - | MIC | H37Rv-MA | - | - | >125 µM |
| C=CCN1C(=O)/C(=C\c2ccncc2)S/C1=N\c1nc2ccccc2s1 | - | - | MIC | H37Rv | - | - | ≥25 µg/mL |
| CCOC(=O)/C(C#N)=C/c1ccc([N+](=O)[O-])o1 | BACTEC | - | inhibition | H37Rv | 12.5 µg/mL | - | -2% |
| CCCCN=C(N=Nc1c(O)[nH]c2ccccc12)SCC(=O)c1ccc([N+](=O)[O-])cc1 | - | - | inhibition | H37Rv | 12 µg/mL | - | 99% |
| CCCCCCCCN1C(=S)CSC12CCCCC2 | resazurin | - | EC50 | H37Ra | - | - | >25 µg/mL |
| C=CCn1c(-c2ccccc2)cs/c1=N\N=C1/C(=O)Nc2ccc(Br)cc21.O | - | - | EC50 | H37Rv | - | - | >12 µg/mL |
| Cc1ccc2[nH]c(O)c(N=NC(=S)NCc3ccccc3)c2c1 | broth dilution / resazurin | - | EC90 | H37Rv | - | - | >100 µg/mL |
| CN1c2ccccc2SC1c1cccnc1 | - | - | MIC | H37Rv | - | - | 50 µg/mL |
| C[C@]1(COc2ccc(-n3cc(COc4ccccc4F)nn3)cc2)Cn2cc([N+](=O)[O-])nc2O1 | broth dilution / resazurin | - | MIC | ss18b non-replicating phase | - | - | 4.29 µM |
| Cc1ccc(S(=O)(=O)NC(=O)NC(=S)c2cccs2)cc1 | resazurin | - | MIC bound | H37Rv | - | - | >6.25 µg/mL |
| CCCCc1ccc(NC(=S)Nc2ccc(CCCC)cc2)cc1 | - | - | MIC | H37Ra | - | - | 0.1–0.5 µg/mL |
| CC1(C)OC2(c3ccccc3)N(c3ccc([N+](=O)[O-])cc3)N=C(c3ccccc3)N2c2ccccc21 | resazurin | - | MIC bound | H37Rv | - | - | >6.25 µg/mL |
| CCCCCCCCCCCCN1C(=O)C(CC(=O)O)SC12CCN(C(=O)C(N)Cc1ccccc1)CC2 | resazurin | - | EC50 | H37Ra | - | - | <25 µg/mL |
| COc1ccc(NC(=S)N=Nc2c(O)[nH]c3ccc(OC(F)(F)F)cc23)cc1 | broth dilution / resazurin | - | EC50 | H37Rv | - | - | 3.339 µg/mL |
| O=C1c2ccc(O)cc2OC(c2cc(O)c(O)c(O)c2)C1O | BACTEC | - | MIC | H37Rv | - | - | ≥12.8 µg/mL |
| c1ccc2c(c1)NC(c1ccc3ccccc3n1)S2 | - | - | MIC | H37Rv | - | - | 1.6 µg/mL |
| C[C@]1(COc2ccc(-n3cc(COc4cccc(Cl)c4)nn3)cc2)Cn2cc([N+](=O)[O-])nc2O1 | broth dilution / resazurin | - | MIC | H37Rv | - | - | 0.52 µM |
| C[C@H]1NCc2cc(-c3ccc4c(=O)c(C(=O)O)cn(C5CC5)c4c3OC(F)F)ccc21 | - | - | MIC90 | 67 clinical isolates | - | - | 4 µg/mL |
| CCCSc1ccc(NC(=S)Nc2ccc(SCCC)cc2)cc1 | - | - | MIC | H37Ra | - | - | <0.1 µg/mL |
| CC(C)c1ccc(OCc2cn(-c3ccc(OC[C@@]4(C)Cn5cc([N+](=O)[O-])nc5O4)cc3)nn2)cc1 | broth dilution / resazurin | - | MIC | H37Rv | - | - | 1.02 µM |
| CCOc1ccc(N2C(=O)/C(=C/c3ccco3)S/C2=N\c2ccccn2)cc1 | - | - | MIC | H37Rv | - | - | ≥25 µg/mL |
| CCCCCCCCCCCCN1C(=O)C(CC(=O)O)SC12CCCCCCC2 | resazurin | - | EC50 | H37Ra | - | - | <25 µg/mL |
| O=C(O)c1cc(N=Nc2ccc(/C=C/c3ccc(N=Nc4ccc(O)c(C(=O)O)c4)cc3S(=O)(=O)[O-])c(S(=O)(=O)[O-])c2)ccc1O.[Na+].[Na+] | BACTEC | - | inhibition | H37Rv | 12.5 µg/mL | - | 33% |
| O=[N+]([O-])c1ccc2c(c1)NC(c1ccccn1)S2 | - | - | MIC | H37Rv | - | - | 1.25 µg/mL |
| COc1cc(C2Cc3c(OC)cc(C(=O)O)cc3C2COC(C)=O)ccc1OC(C)=O | resazurin | - | inhibition | ATCC 27294 | 6.25 µg/mL | - | 38% |
| C/C=C/C/C=C/CCC(=O)[C@H]1O[C@H]1C(N)=O | - | - | MIC | H37Rv | - | - | 3 µg/mL |
| Cn1cc(NC(=O)Nc2cc(C(=O)Nc3cc(C(=O)Nc4cc(S(=O)(=O)O)c5cc(S(=O)(=O)O)cc(S(=O)(=O)O)c5c4)n(C)c3)n(C)c2)cc1C(=O)Nc1cc(C(=O)Nc2cc(S(=O)(=O)O)c3cc(S(=O)(=O)O)cc(S(=O)(=O)O)c3c2)n(C)c1 | BACTEC | - | inhibition | H37Rv | 12.5 µg/mL | - | 0% |
| C[C@]1(COc2ccc(-c3cc(-c4cccc(C(F)(F)F)c4)on3)cc2)Cn2cc([N+](=O)[O-])nc2O1 | broth dilution / resazurin | - | MIC | H37Rv | - | - | 0.25 µM |
| CC(C)CCSc1ccc(NC(=S)Nc2ccc(SCCC(C)C)cc2)cc1 | - | - | MIC | H37Ra | - | - | 2.5 µg/mL |
| CCCCCCCCN1C(=O)CSC12CCCCC2 | resazurin | - | inhibition | H37Ra | 25 µg/mL | - | 96% |
| O=C(c1cn(-c2cccc3ccccc23)nn1)c1cccs1 | - | - | inhibition | H37Rv | 12.5 µg/mL | - | 0% |
| CCC1C(=O)OCC1Cc1cnc[nH]1 | BACTEC | - | inhibition | H37Rv | 12.5 µg/mL | - | -1% |
| Cc1ccc(NC(=S)NNC(=O)c2sc3ccc(Cl)cc3c2Cl)cc1 | BACTEC | - | inhibition | H37Rv | 6.25 µg/mL | - | 22% |
| NC1=C([N+](=O)[O-])NC2OC[C@@H](OCc3ccc(OC(F)(F)F)cc3)CN12 | broth dilution | - | MIC | Ddn- | - | - | >100 µM |
| CN1C(=O)[C@]23CC4=CC=C[C@H](O)[C@H]4N2C(=O)[C@@]1(CO)SS3 | - | VERO | MIC | H37Rv | - | - | 0.05 µg/mL |
| NNC(=O)c1ccncc1 | resazurin | - | MIC | FJ05120 | - | Multidrug-resistant | 4 µg/mL |
| COC1OC(CO)C(NC(N)=O)C1O | BACTEC | - | MIC bound | H37Rv | - | - | >12.5 µg/mL |
| C=CCN1C(=O)/C(=C/c2ccccc2)S/C1=N\c1nc2ccccc2s1 | - | - | MIC | H37Rv | - | - | ≥25 µg/mL |
| Cc1ccc(NC(=S)N=Nc2c(O)[nH]c3ccc(OC(F)(F)F)cc23)cc1 | broth dilution / resazurin | - | EC50 | H37Rv | - | - | 3.472 µg/mL |
| NNC(=O)c1ccncc1 | resazurin / absorbance | - | MIC | HUG.MI.1020 | - | katG mutant isoniazid resistant | 1.3 µg/mL |
| C=CCN1C(=O)/C(=C\c2ccc(C)o2)S/C1=N\c1nc2ccccc2s1 | - | - | MIC | H37Rv | - | - | 12.5 µg/mL |
| COc1cccc2c1NC(c1ccccn1)S2 | - | - | MIC | H37Rv | - | - | 1.9 µg/mL |
| Oc1[nH]c2ccc(OC(F)(F)F)cc2c1N=NC(=S)NCc1ccccc1 | broth dilution / resazurin | - | EC50 | H37Rv | - | - | 1.11 µg/mL |
| c1c[nH]c(C2Nc3ccccc3S2)c1 | - | - | MIC | H37Rv | - | - | 0.6 µg/mL |
| C1=C(Nc2ccccc2)C(=Nc2ccccc2)C=C(Nc2ccccc2)C1=Nc1ccccc1 | BACTEC | - | inhibition | H37Rv | 12.5 µg/mL | - | 10% |
| c1ccc(CC2Nc3ccccc3S2)cc1 | - | - | MIC | H37Rv | - | - | 50 µg/mL |
| FC(F)(F)c1ccc(Cl)c(NC(=S)SC2CCCCC2)c1 | BACTEC | - | MIC | H37Rv | - | - | 128 µg/mL |
| Cc1cccc(NC(=S)NNC(=O)c2sc3ccc(Cl)cc3c2Cl)c1C | BACTEC | - | inhibition | H37Rv | 6.25 µg/mL | - | 28% |
| c1ccc2c(c1)NC(c1nc3ccccc3[nH]1)S2 | - | - | MIC | H37Rv | - | - | 25 µg/mL |
| COc1ccccc1Nc1nnc(-c2sc3ccc(Cl)cc3c2Cl)s1 | BACTEC | - | inhibition | H37Rv | 6.25 µg/mL | - | 0% |
| Cc1ccc2c(c1)c(N=NC(=S)Nc1ccccc1Br)c(O)n2C | broth dilution / resazurin | - | EC90 | H37Rv | - | - | >100 µg/mL |
| CN[C@@H]1[C@@H](O)C(O[C@@H]2[C@@H](O)[C@H](OC3O[C@H](CN)[C@@H](O)[C@H](O)[C@H]3O)[C@@H](N)C[C@H]2NC(=O)[C@@H](O)CN)OC[C@]1(C)O | - | - | MIC | J12 | - | - | 1.56 µg/mL |
| CO[C@@]12[C@H](COC(N)=O)C3=C(C(=O)C(C)=C(N)C3=O)N1C[C@H]1[C@@H]2N1C(=O)C1N2C(=O)[C@@H](NC(=O)Cc3ccccc3)[C@H]2SC1(C)C | - | - | MIC | ETA-R | - | - | 0.2 µg/mL |
| CNC(=S)N=Nc1c(O)[nH]c2ccc(OC(F)(F)F)cc12 | broth dilution / resazurin | - | EC50 | H37Rv | - | - | 1.311 µg/mL |
| O=C(NCCCl)N1CCC(CN=c2cc3n(-c4ccc(Cl)cc4)c4ccccc4nc-3cc2Nc2ccc(Cl)cc2)CC1 | BACTEC | - | MIC bound | H37Rv | - | - | ≤12.5 µg/mL |
| CCCCN1C(=O)C(C)S/C1=N/N=C1\C(=O)Nc2ccc(Br)cc21 | - | - | EC50 | H37Rv | - | - | >12 µg/mL |
| Clc1cccc(Nc2nnc(-c3sc4ccc(Cl)cc4c3Cl)s2)c1 | BACTEC | - | inhibition | H37Rv | 6.25 µg/mL | - | 0% |
| CCCCCCCCN1C(=O)CS(=O)(=O)C12CCCCC2 | resazurin | - | EC50 | H37Ra | - | - | <25 µg/mL |
| CC1COc2c(N3CCN(C)CC3)c(F)cc3c(=O)c(C(=O)O)cn1c23 | - | - | MIC90 | 18 isolates | - | - | 2 µg/mL |
| COC(=O)[C@H]1[C@H](O)[C@H](C)[C@@H](O)[C@@H](C)/C=C(\C)C2=C3C(=C(C)C(=O)c4c(O)c(c(C)c(OC(C)=O)c43)NC(=O)/C(C)=C/C=C\[C@@H](C)C(O)[C@@H](C)[C@H]1O)OCO2 | - | - | MIC | PAS-R | - | - | 0.8 µg/mL |
| O=[N+]([O-])c1ccc2nc(-c3ccccc3-c3nnc(-c4cccc(Cl)c4)o3)[nH]c2c1 | - | - | inhibition | H37Rv | 12.5 µg/mL | - | 79% |
| CCCSc1ccc(NC(=S)Nc2ccc(OCCC(C)C)cc2)cc1 | - | - | MIC | H37Ra | - | - | 0.1 µg/mL |
| Cc1cccc(Nc2nnc(-c3sc4ccc(Cl)cc4c3Cl)s2)c1C | BACTEC | - | inhibition | H37Rv | 6.25 µg/mL | - | 0% |
| CCCCCCCCCCCCN1C(=O)C(CC(=O)O)SC12CCN(OC(=O)C(C)(C)C)CC2 | resazurin | - | EC50 | H37Ra | - | - | <25 µg/mL |
| CCOc1ccc(N2C(=O)/C(=C/c3ccc(OC)c(OC)c3)S/C2=N\c2ccccn2)cc1 | - | - | MIC | H37Rv | - | - | ≥25 µg/mL |
| CCOc1cc(=O)cc2n(-c3cc(OCC)c(OC)c(OCC)c3)c3ccccc3nc1-2 | BACTEC | - | inhibition | H37Rv | 12.5 µg/mL | - | 15% |
| CO[C@H]1/C=C/O[C@@]2(C)Oc3c(C)c(O)c4c(O)c(c(/C=N/N5CCN(C)CC5)c(O)c4c3C2=O)NC(=O)/C(C)=C\C=C\[C@H](C)[C@H](O)[C@@H](C)[C@@H](O)[C@@H](C)[C@H](OC(C)=O)[C@@H]1C | - | - | MIC90 | 22 strains | - | - | 100 µg/mL |
| O=C1C=C[C@@H](COC2OC(CO)C(O)C(O)C2O)O1 | - | - | MIC | PZA-R | - | - | 6.3 µg/mL |
| O=C(Oc1ccc(Cl)cc1)c1cn(-c2ccccc2)nn1 | - | - | inhibition | H37Rv | 12.5 µg/mL | - | 24% |
| COc1ccc(/C=C/C(=O)Oc2ccc(CCO)c(O)c2)cc1 | resazurin | - | inhibition | ATCC 27294 | 6.25 µg/mL | - | 49% |
| CCN(CC)C(=S)[S][Sn]([S]C(=S)N(CC)CC)([c]1ccccc1)[c]1ccccc1 | - | - | MIC | KM-R | - | - | 1.6 µg/mL |
| N#Cc1cccc(C2Nc3ccccc3S2)c1 | - | - | MIC | H37Rv | - | - | 6.25 µg/mL |
| CCNC(=S)N=Nc1c(O)[nH]c2ccccc12 | - | - | inhibition | H37Rv | 12 µg/mL | - | 7% |
| O=C(c1cn(O)nn1)c1ccc(Br)cc1Br | - | - | MIC | H37Rv | - | - | >12.5 µg/mL |
| COC(=O)c1ccc(OC(=O)/C=C/c2ccc(OC(C)=O)c(OC)c2)c(O)c1 | resazurin | - | inhibition | ATCC 27294 | 6.25 µg/mL | - | 30% |
| O=C(COc1ccccc1)N/N=C1\CCOc2ccccc21 | - | - | inhibition | H37Rv | 12.5 µg/mL | - | 50–64% |
| O=C(c1ccc2ccccc2c1)c1cn(-c2ccc(Cl)cc2)nn1 | - | - | MIC | H37Rv | - | - | >12.5 µg/mL |
| CCOC(=O)C1=C(C(C)=O)C(c2ccccc2[N+](=O)[O-])C(C(C)=O)=C(C(=O)OCC)N1 | BACTEC | - | MIC bound | H37Rv | - | - | >12.5 µg/mL |
| CCCCCCCCCCCCCCCCNC(=S)NCCCC(=O)OC | - | - | MIC | H37Ra | - | - | >20 µg/mL |
| CCCCCCCCCCCCN1C(=O)C(CC(=O)O)SC12CCC(C(C)(C)C)CC2 | resazurin | - | inhibition | H37Ra | 25 µg/mL | - | 96% |